Experimental data from US20260308536A1, “NOVEL URICASE VARIANTS AND METHODS OF USE THEREOF” (priority 2023, published 2026).

Tested on: O=c1[nH]c(=O)c2[nH]c(=O)[nH]c2[nH]1
Assay: purified protein, by the assay type
Conditions: other: role: substrate; wild type Aspergillus flavus uricase (WT); pH 10.5; 25.0 °C

Q: “Aspergillus flavus uricase, wild type, SEQ ID NO: 7 (Aspergillus flavus)” was tested. Which Km did it give?
A: 290 ± 30 µM
